From US20250237650A1 (priority 2021, published 2025)

System: monomeric HIV gp140 protein (group M, subtype CRF07_BC)
Parameters: species or system HIV-1
Details: CD4 signaling probe; p<0.05

heparan sulfate [HS]
LFSA signal intensity of capture probes for Env protein: significantly higher signal intensity than the HEP
